Results of unrelated studies side by side (data: NIAID ChemDB).

All rows: tests in culture; organism: Herpes simplex virus 1; endpoint: EC50

ECn is the concentration giving n% inhibition of infection, replication or growth. Lines come from different laboratories, so protocols vary. Blank or dashed fields: not listed here.

smiles | cell line | strain or isolate | result
Nc1nc(N)c2ncn(CCOCP(=O)(O)O)c2n1 | Primary rabbit kidney cells | TK- | 1 µg/mL
COc1cc(C[C@H]2C(=O)OC[C@@H]2Cc2ccc3c(c2)OCO3)cc(OC)c1OC | MRC-5 | KOS | >11.9 µg/mL
COC(=O)CN(CC(=O)OC)P(=O)(OC[C@H]1O[C@@H](n2cc(/C=C/Br)c(=O)[nH]c2=O)C[C@@H]1O)Oc1ccccc1 | HEL | KOS | >100 µM
Nc1nc(=O)n([C@H]2O[C@@H](CO)C[C@H]2F)cc1Br | VERO | - | >100 µM
COC[C@H](Cc1ccc2c(c1)OCO2)[C@@H](COC)Cc1ccc2c(c1)OCO2 | - | 1 | 143.1 µg/mL
O=c1[nH]cnc2c1ncn2C[C@@H](CO)OCP(=O)(O)O | Primary rabbit kidney cells | - | >400 µg/mL
O=c1c(O)c(-c2ccccc2)oc2cc(O)cc(O)c12 | VERO | TK- | >15 µg/mL
Cc1cn(C[C@@H](CO)OCP(=O)(O)O)c(=O)[nH]c1=O | Primary rabbit kidney cells | TK- | >400 µg/mL
Nc1nc(=O)n([C@H]2O[C@@H](CO)C[C@H]2F)cc1F | VERO | - | >100 µM
Nc1ccn(C[C@@H](CO)OCP(=O)(O)O)c(=O)n1 | HEL | KOS | 2 µM
Nc1ncnc2c1ncn2C[C@@H](CO)OCP(=O)(O)O | Primary rabbit kidney cells | TK- | 2 µg/mL
Nc1ncnc2c1ncn2[C@@H]1C[C@@H](O)[C@H](CO)O1 | HFF | - | >100 µM
Nc1ncnc2c1ncn2[C@@H]1O[C@@H](CO)CC1F | VERO | - | >100 µM
Nc1ncnc2c1ncn2[C@H]1C[C@H](O)[C@@H](COP([O-])(=S)O[C@H]2C[C@H](n3ccc(=O)[nH]c3=O)O[C@@H]2CO)O1 | - | KOS | >20 µM
Nc1nccc2c1ncn2[C@H]1C[C@H](O)[C@@H](COP(=O)(O)COC(=O)[C@@H](N)CC(=O)O)O1 | HEL | KOS | >100 µM
COC[C@H](Cc1ccc(OC)c(OC)c1)[C@@H](COC)Cc1ccc2c(c1)OCO2 | - | 1 | 53.42 µg/mL
O=c1[nH]c(=O)n(C2CC(O)C(CO)O2)cc1/C=C/Br | HEL | KOS | 0.1 µM
O=c1[nH]c(=O)n([C@H]2O[C@@H](CO)C[C@H]2F)cc1I | VERO | - | >100 µM
CC(C)(C)C(=O)OCOC(=O)CN(CC(=O)OCOC(=O)C(C)(C)C)P(=O)(OC[C@H]1O[C@@H](n2ccc3c(N)ncnc32)C[C@@H]1O)Oc1ccccc1 | HEL | KOS | >100 µM
Cc1cn([C@@H]2C[C@@H](O)[C@H](CO)O2)c(=O)[nH]c1=O | HFF | - | >200 µM
Nc1nc2c(ncn2CC(CO)OCP(=O)(O)O)c(=O)[nH]1 | Primary rabbit kidney cells | TK- | 7 µg/mL
COc1cc(C2c3c(cc4c(c3OC)OCO4)C[C@H]3COC(=O)[C@H]23)cc(OC)c1OC | MRC-5 | KOS | 0.053 µg/mL
O=C(O[C@@H]1Cc2c(O)cc(O)cc2O[C@@H]1c1cc(O)c(O)c(O)c1)c1cc(O)c(O)c(O)c1 | VERO | - | 0.1 µM
COc1ccc(-c2cc(=O)c3c(O)cc(O)cc3o2)cc1 | VERO | - | >20 µg/mL
Nc1nc2c(ncn2[C@H]2O[C@@H](CO)C[C@H]2F)c(=O)[nH]1 | VERO | - | >100 µM
Nc1ncnc2c1ncn2CCOCP(=O)(O)O | Primary rabbit kidney cells | - | 7 µg/mL
O=c1[nH]c(=O)n([C@H]2O[C@@H](CO)C[C@H]2F)cc1F | VERO | - | >100 µM
COc1cc(C2c3cc4c(cc3C[C@H]3COC(=O)[C@H]23)OCO4)cc(OC)c1OC | MRC-5 | INOUE | 0.006 µg/mL
C[C@H](N)C(=O)OCP(=O)(OC[C@H]1O[C@@H](n2ccc3c(N)ncnc32)C[C@@H]1O)Oc1ccccc1 | HEL | KOS | >100 µM
Nc1nc(=O)n([C@H]2O[C@@H](CO)C[C@H]2F)cc1Cl | VERO | - | >100 µM
C[C@H](N)C(=O)OCP(=O)(OC[C@H]1O[C@@H](n2cnc3c(N)ccnc32)C[C@@H]1O)Oc1ccccc1 | HEL | KOS | >100 µM
O=c1[nH]c(=O)n([C@H]2O[C@@H](CO)C[C@H]2F)cc1Br | VERO | - | >100 µM

The last 3 rows once more:

smiles | cell line | strain or isolate | result
Nc1nc(=O)n([C@H]2O[C@@H](CO)C[C@H]2F)cc1Cl | VERO | - | >100 µM
C[C@H](N)C(=O)OCP(=O)(OC[C@H]1O[C@@H](n2cnc3c(N)ccnc32)C[C@@H]1O)Oc1ccccc1 | HEL | KOS | >100 µM
O=c1[nH]c(=O)n([C@H]2O[C@@H](CO)C[C@H]2F)cc1Br | VERO | - | >100 µM